# Results as given in paper PMC4154654 (PLoS Neglected Tropical Diseases, 2014).
# System: cAMP-activated Cl− secretion in T84 cells
# Assay: Short-circuit current (Isc) measurement of forskolin-induced cAMP-activated Cl− secretion across T84 cell monolayers
Compound,"effect on cAMP-activated Cl− secretion elicited by forskolin (T84 monolayers, Isc)","pIC50 (Homo sapiens, T84, read-out: IC50, inhibition of cAMP-activated Cl− secretion)","inhibition of cAMP-activated Cl− secretion at 200 µM (T84 monolayers, forskolin, 200 µM)",effect of CYP inhibition on the inhibition of cAMP-activated Cl− secretion (pretreatment with 1-aminobenzotriazole (1-ABT; 1 mM))
O=C(O)c1ccc(/C=C2\SC(=S)N(c3cccc(C(F)(F)F)c3)C2=O)cc1 [CFTRinh-172],completely abolished,,,
O=C(O)Cc1ccccc1Nc1c(Cl)cccc1Cl [diclofenac],,~4.70,almost complete inhibition,virtually no effect

# pIC50: −log10 of the molar value.
